Record: PubChem BioAssay AID1259414 (Drosophila RNAi Screening Center, 2018)

- Purpose: 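Host factors increasing or decreasing Wolbachia levels in cultured fly cells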 (primary screen)
- Cells: Drosophila JW18 cells infected with Wolbachia
- Knock-down reagent: long dsRNA against Drosophila genes, 0.25 µg dsRNA per well of a 384-well plate
- Duration: 5 days
- Treatment: cells persistently infected with Wolbachia before knock-down; no added drug
- Measured: 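Automated imaging of bacterial rRNA staining divided by host cell count, reported as plate-normalised robust z-score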
- Scale: Wolbachia per cell robust z: higher = more Wolbachia per host cell than the plate typical
- Hit rule: 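Active if absolute robust z reaches 1.5 in two or more of three replicates, leaving out multi- or no-target dsRNAs, genes unexpressed in JW18 and A1 wells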
In all, the deposit lists about 24,000 reagents; shown is an unselected part of those that have a named target and a result. Of all reagents, about 1,210 (5%) are marked active. 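Inactive calls also include excluded dsRNAs with several or no targets, genes unexpressed in JW18, and well A1, regardless of score.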 Names joined by + are all predicted targets of the reagent.

CG4465 [DRSC15584] showed Wolbachia per cell robust z, rep 1 = 1.51; Wolbachia per cell robust z, rep 2 = 1.04; Wolbachia per cell robust z, rep 3 = -0.316; inactive.
CG7139 [DRSC11611] showed Wolbachia per cell robust z, rep 1 = 1.36; Wolbachia per cell robust z, rep 2 = -5.25; Wolbachia per cell robust z, rep 3 = -0.00185; inactive.
For CG7139 [DRSC24579], the entry reads Wolbachia per cell robust z, rep 1 = 0.378; Wolbachia per cell robust z, rep 2 = 1.7; Wolbachia per cell robust z, rep 3 = 0.41; inactive.
Depletion of hui [DRSC05977] gave: Wolbachia per cell robust z, rep 1 = 0.191; Wolbachia per cell robust z, rep 2 = -1.21; Wolbachia per cell robust z, rep 3 = -4.06; inactive.
With knock-down of hui [DRSC28947], the screen gave Wolbachia per cell robust z, rep 1 = -4.29; Wolbachia per cell robust z, rep 2 = -9.15; Wolbachia per cell robust z, rep 3 = -6.44; inactive.
With knock-down of CG3306 [DRSC10357] the results were Wolbachia per cell robust z, rep 1 = -0.53; Wolbachia per cell robust z, rep 2 = 0.351; Wolbachia per cell robust z, rep 3 = -0.429; inactive.
Silencing of PGRP-SC1a [DRSC06482] resulted in: Wolbachia per cell robust z, rep 1 = -0.329; Wolbachia per cell robust z, rep 2 = -0.275; Wolbachia per cell robust z, rep 3 = 0.0577; inactive.
EMC2A + EMC2B [DRSC15241] gave Wolbachia per cell robust z, rep 1 = -1.8; Wolbachia per cell robust z, rep 2 = -0.795; Wolbachia per cell robust z, rep 3 = -0.497; inactive.
fy [DRSC03533] scored Wolbachia per cell robust z, rep 1 = -0.661; Wolbachia per cell robust z, rep 2 = 0.398; Wolbachia per cell robust z, rep 3 = -0.698; inactive.
fy [DRSC25931] scored Wolbachia per cell robust z, rep 1 = -1.71; Wolbachia per cell robust z, rep 2 = -0.00109; Wolbachia per cell robust z, rep 3 = 0.105; inactive.
After knock-down of TwdlJ [DRSC15812], the screen gave Wolbachia per cell robust z, rep 1 = -4.57; Wolbachia per cell robust z, rep 2 = -0.118; Wolbachia per cell robust z, rep 3 = -0.555; inactive.
CG9098 [DRSC03136] showed Wolbachia per cell robust z, rep 1 = 0.476; Wolbachia per cell robust z, rep 2 = 0.208; Wolbachia per cell robust z, rep 3 = 0.994; inactive.
Against CG9098 [DRSC22501], the values are Wolbachia per cell robust z, rep 1 = -3.84; Wolbachia per cell robust z, rep 2 = 1.52; Wolbachia per cell robust z, rep 3 = 0.645; inactive.
CG9098 [DRSC28828] gave Wolbachia per cell robust z, rep 1 = 0.859; Wolbachia per cell robust z, rep 2 = 1.38; Wolbachia per cell robust z, rep 3 = 0.512; inactive.
Silencing of CG2187 [DRSC15425] gave: Wolbachia per cell robust z, rep 1 = -3.39; Wolbachia per cell robust z, rep 2 = 0.172; Wolbachia per cell robust z, rep 3 = -0.547; inactive.
For CG2187 [DRSC25548], the entry reads Wolbachia per cell robust z, rep 1 = 1.07; Wolbachia per cell robust z, rep 2 = 0.0507; Wolbachia per cell robust z, rep 3 = 1.01; inactive.
Depletion of mora [DRSC16594] resulted in: Wolbachia per cell robust z, rep 1 = 0.231; Wolbachia per cell robust z, rep 2 = -0.132; Wolbachia per cell robust z, rep 3 = -0.538; inactive.
Against CG13069 [DRSC09952] the deposit lists Wolbachia per cell robust z, rep 1 = 0.63; Wolbachia per cell robust z, rep 2 = 0.678; Wolbachia per cell robust z, rep 3 = -0.638; inactive.
CG14340 [DRSC00370] showed Wolbachia per cell robust z, rep 1 = 0.512; Wolbachia per cell robust z, rep 2 = -0.839; Wolbachia per cell robust z, rep 3 = 0.2; inactive.
Nop60B [DRSC04627] scored Wolbachia per cell robust z, rep 1 = -0.633; Wolbachia per cell robust z, rep 2 = 0.65; Wolbachia per cell robust z, rep 3 = -0.418; inactive.
After knock-down of lectin-30A [DRSC02560], the record shows Wolbachia per cell robust z, rep 1 = -4.25; Wolbachia per cell robust z, rep 2 = -0.575; Wolbachia per cell robust z, rep 3 = -0.523; inactive.
With knock-down of mts [DRSC03574] the results were Wolbachia per cell robust z, rep 1 = 1.31; Wolbachia per cell robust z, rep 2 = 2.12; Wolbachia per cell robust z, rep 3 = 1.22; inactive.
cu [DRSC15643] gave Wolbachia per cell robust z, rep 1 = -1.21; Wolbachia per cell robust z, rep 2 = 0.299; Wolbachia per cell robust z, rep 3 = 0.144; inactive.
With knock-down of cu [DRSC15648] the results were Wolbachia per cell robust z, rep 1 = -3.49; Wolbachia per cell robust z, rep 2 = 0.357; Wolbachia per cell robust z, rep 3 = -7.33; active.
